Measured values published in patent EP2654803B1, “RADIOLABELED HER2-BINDING PEPTIDE CONJUGATES” (General Electric Company, priority 2010, dated 2021).

Experiments:
SKOV3 tumors = tested on: SKOV3 tumors; design: species or system female CD-1 nude mice; settings: mouse, in vivo
Protocol: Labeling of His6 (SEQ ID NO: 7)-tagged Polypeptides with the fac-[^99mTc(CO)3]^+ core was accomplished using modifications to a previously published procedure (Waibel, R.; et al., A. Nat. Biotechnol. 1999, 17, 897.). Briefly, Na[^99mTcO4] in saline (4 mCi, 2 mL) was added to an Isolink® boranocarbonate kit (Alberto, R. et al, J. Am. Chem. Soc. 2001, 123, 3135.). The resulting solution was heated to 95°C for 15-20 minutes, to give fac-[^99mTc(CO)3(H2O)3]^+. A portion (2 mCi, 1 mL) of the solution was removed and neutralized to pH ∼7 with 1 N HCl. A 325 µL aliquot was removed and added to a solution of the His6-Polypeptide (SEQ ID NO: 7) (40 µg). The resulting solution was heated in a water bath at 35-37°C for 40 minutes. Typical radiochemical yields ranged from 80-95% (determined by ITLC-SG, Biodex, 0.9% NaCl). […]
Mice were given tail-vein injections of ∼1 µg of ^99mTc-labeled polypeptides (∼3 µCi/1 µg). […] Three mice were euthanized at each timepoint and tissues of interest dissected and counted on a Perkin Elmer Wallac Wizard 1480 Gamma Counter. […] Urine from cages was pooled with the bladder and also counted. The remaining tissues were counted and the sum of all tissues plus urine for each animal was summed to provide the total injected dose. The % injected dose for each organ was determined based on this total, and organs were weighed for determination of the % injected dose per gram, (%ID/g). […]

[1] = stability of purified, formulated 67Ga-labeled polypeptide (HPLC); assay type: physicochemical; settings: formulated in Dulbecco's phosphate buffered saline, pH 6-6.5, RCP = 96% by HPLC
Protocol: Radiolabeling was subsequently accomplished as follows: 25µl HEPES solution (63mM) was initially added to a screw top vial followed by 10µl ^67GaCl3 (GE Healthcare) in 40.5 MBq of 0.04M HCl. 30 µg (MW = 7506, 4.0×10^-9 mol) of the NOTA Z00477 (SEQ. ID No. 3) in 30 µl H2O was then added to the reaction mixture to give a final NOTA Z00477 (SEQ. ID No. 3) concentration of 61 µM with a pH of 3.5-4.0. The reaction vial was sealed and the reaction maintained at ambient temperature. Reverse phase HPLC analysis of the crude reaction mixture determined the radiochemical purity of the ^67Ga-NOTA Z00477 (SEQ. ID No. 3) was determined to be 95% by HPLC after 2 hours at room temperature. (Fig. 21) The ^67Ga-NOTA Z00477 (SEQ. ID No. 3) was purified by HPLC after a reaction time of 1 day. 22MBq of ^67Ga-NOTA Z00477 (SEQ. ID No. 3) was injected onto the HPLC for the purification. 15MBq of the ^67Ga labeled product was obtained from the purification (radiochemical yield = 68%). HPLC solvents were removed under vacuum to give a solution with an approximate volume of 0.5 mL. Approximately 1.45 mL of Dulbecco's phosphate buffered saline was then added to give a final solution at pH 6-6.5 with a radioactivity concentration of 7.7 MBq/mL. […] (RCP = 96% by HPLC) (Fig. 22). Analytical HPLC conditions used are as follows: A Grace Vydac C4 protein 5 micron, 300Å, 4.6 x 250 mm HPLC column. […]

| Substance | peak tumor: blood ratio (SKOV3 tumors) | stable at room temperature [1] |
| --- | --- | --- |
| Z00477 (SEQ. ID No. 3) His6 (SEQ ID NO: 7)tagged: His6-tagged Z00477 polypeptide labeled with the fac-[99mTc(CO)3]+ core | more than 8 |  |
| ^67Ga-NOTA Z00477 (SEQ. ID No. 3): Z00477 polypeptide conjugated with Mal-NOTA and labeled with 67Ga |  | at least 2 hr |
